test system: NC(=O)C1=CN([C@@H]2O[C@H](COP(=O)(O)OP(=O)(O)OC[C@H]3O[C@@H](n4cnc5c(N)ncnc54)[C@H](O)[C@@H]3O)[C@@H](O)[C@H]2O)C=CC1; assay: purified protein; conditions: varied 1,4-benzoquinone, 20 mM KPi, 200 mM NaCl, pH 7.0, 25 °C

Substance | Km [µM] | kcat [s⁻¹]
NADH:quinone oxidoreductase (NQO), PA1024 (Pseudomonas aeruginosa PAO1; Q80E) | 120 ± 10 | 20 ± 1
NADH:quinone oxidoreductase (NQO), PA1024 (Pseudomonas aeruginosa PAO1; Q80G) | 360 ± 15 | 27 ± 1
NADH:quinone oxidoreductase (NQO), PA1024 (Pseudomonas aeruginosa PAO1; Q80L) | 180 ± 8 | 23 ± 1

— paper PMC10033279, “Mutation of a distal gating residue modulates NADH binding in NADH:Quinone oxidoreductase from Pseudomonas aeruginosa PAO1” (The Journal of Biological Chemistry, 2023)
